# Data as given in PubChem BioAssay AID504761 (Drosophila RNAi Screening Center, 2011)
# Purpose: 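Genome-wide fly cell screen for genes dengue virus requires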 (primary screen)
# Cells: D.Mel-2 cells from Drosophila
# Reagents: long dsRNA against Drosophila genes
# Conditions: infection with dengue virus type 2; dose and infection time not stated
# Measurement: 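Per well on two replicate plates, imaging gave the percent of cells positive for viral envelope protein, ranked by infection, and a nuclear count of cells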
# Scale: infection score: higher = more virus-infected cells; cell count: higher = more cells in the well
# Hit rule: 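Very low infection ranking in both replicate wells (chance probability at most 0.065), then a retest showing infection dropped 1.5-fold or more at p below 0.05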
# Meaning of the calls: active = confirmed: knock-down lowers infection; inactive = not picked or not confirmed
# The deposit covers about 22,000 reagents; below is an unselected part of those that have a named target and a result. Of all reagents, 116 (0.52%) got an active call. 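Calls depend on retest data that are not deposited; infection was ranked per plate without normalising between plates; the unit of the infection score is not given.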 Raw values are not corrected between plates. Unmarked entries are inactive. A plus sign joins genes that one reagent is predicted to hit. No sequences are given here. The record does not give: the amount of reagent, the time to read-out.
predicted target,dsRNA,"infection score, replicate 1","infection score, replicate 2","cell count, replicate 1","cell count, replicate 2"
gry (GeneID 38391),DRSC08028,1.9,0.35,6747,6234
gry (GeneID 38391),DRSC08518,11.2,8.43,6361,6183
CG34398 (GeneID 5740462),DRSC01052,0.6,3.92,5998,6710
CG34398 (GeneID 5740462),DRSC02511,37.4,41.5,4695,4673
CG34398 (GeneID 5740462),DRSC03228,1.14,2.05,6672,6842
CG34398 (GeneID 5740462),DRSC23293,2.79,14.5,6411,5975
AttC (GeneID 36484),DRSC06886,10.7,19.7,6441,5687
AttC (GeneID 36484),DRSC26453,5.65,7.17,6390,6580
Tim17a1 (GeneID 41500),DRSC14184,6.92,7.18,6677,7030
Rab18 (GeneID 44360),DRSC18702,3.34,2.6,6859,7070
Rab18 (GeneID 44360),DRSC26667,1.97,1.01,6049,6122
aus (GeneID 42531),DRSC13471,4.7,6.76,5857,6181
aus (GeneID 42531),DRSC13473,0.52,0.03,6518,6517
aus (GeneID 42531),DRSC15157,1.51,4.21,6108,6479
aus (GeneID 42531),DRSC26783,7.48,1.81,6601,6953
sNPF-R (GeneID 40195),DRSC10836,4.57,5.91,6214,6460
Gr94a (GeneID 117339),DRSC13597,6.33,6.14,6509,5925
Tsp42Ep (GeneID 35626),DRSC06871,28.6,15.4,6000,6853
CG34260 + cmpy,DRSC11701,7.7,7.76,6287,6653
CR30374 (GeneID 10178922),DRSC05080,0.01,0.88,6785,6470
Cubn (GeneID 326235),DRSC18256,3.11,3.54,6941,6972
Cubn (GeneID 326235),DRSC29380,20.9,16.4,4161,5225
east (GeneID 46006),DRSC18770,9.12,4.41,5211,4625
east (GeneID 46006),DRSC23626,3.11,3.53,5731,5578
disco (GeneID 32579),DRSC20323,7.55,4.07,1378,6611
disco (GeneID 32579),DRSC25113,5.99,1.79,6709,6719
Ir56a (GeneID 246471),DRSC05776,3.06,2.79,5749,5591
Ir56a (GeneID 246471),DRSC28590,15.9,1.19,2815,505
CG9389 (GeneID 40347),DRSC11857,18.2,8.01,5994,7214
CG13284 (GeneID 35021),DRSC02256,10.8,2.27,1918,6923
Appl (GeneID 31002),DRSC17728,0.99,3.72,302,6980
Appl (GeneID 31002),DRSC27476,14.3,7.96,5371,6317
CG17839 (GeneID 39616),DRSC10290,1.89,2.05,6254,6544
CG17839 (GeneID 39616),DRSC10291,1.03,1.87,6233,6004
stil (GeneID 36380),DRSC07699,25.9,9.3,4734,6301
CalpC (GeneID 32597),DRSC19873,5.19,3.75,6437,6889

Entries listed so far whose gene name starts with D or d (2):
predicted target,dsRNA,"infection score, replicate 1","infection score, replicate 2","cell count, replicate 1","cell count, replicate 2"
disco (GeneID 32579),DRSC20323,7.55,4.07,1378,6611
disco (GeneID 32579),DRSC25113,5.99,1.79,6709,6719

Further reagents follow:
predicted target,dsRNA,"infection score, replicate 1","infection score, replicate 2","cell count, replicate 1","cell count, replicate 2"
CR18275 + CG13373,DRSC17900,9.77,1.21,6264,6503
CG32986 (GeneID 34208),DRSC02509,5.25,2.48,6727,6532
CG34205 (GeneID 37526),DRSC04149,32.1,16.6,5725,4646
CG34205 (GeneID 37526),DRSC22823,1.07,3.2,6100,6440
Jon44E (GeneID 35853),DRSC07216,6.39,3.22,6146,6779
Jon44E (GeneID 35853),DRSC25190,4.45,4.24,6333,5663
ver (GeneID 39432),DRSC10125,0.3,0.7,5957,5831
ver (GeneID 39432),DRSC28113,34.8,23.2,4419,3233
CG5984 (GeneID 43281),DRSC15930,6.37,1.45,5716,6833
CG9636 (GeneID 40967),DRSC16529,7.03,11.3,6783,6993
Rbfox1 (GeneID 39198),DRSC09034,12,12.1,6231,6182
Rbfox1 (GeneID 39198),DRSC21378,6.13,18.9,5501,6377
Rbfox1 (GeneID 39198),DRSC22992,3.09,5.91,5499,6147
Rbfox1 (GeneID 39198),DRSC25775,3.34,4.55,6326,6155
CG11145 (GeneID 35663),DRSC06049,9.68,6.78,6228,6045
Oseg6 (GeneID 37245),DRSC06066,1.42,1.44,6533,6514
Sxl + CG14425 (retired record),DRSC18721,2.1,26.9,6491,6677
Sxl + CG14425 (retired record),DRSC18722,1.96,0.73,6422,6846
Sxl + CG14425 (retired record),DRSC21490,4.83,5.16,5941,6041
Sxl + CG14425 (retired record),DRSC28896,21.4,20.5,4748,4459
CG8142 (GeneID 32763),DRSC20086,20.3,1.13,3910,6170
CG8142 (GeneID 32763),DRSC26373,8.83,5.95,4904,5480
